Measured values from several laboratories, pooled; numbers as filed in NIAID ChemDB.

Shared fields: tests in culture; species: HIV-1; cell line: MT-4; endpoint: EC50

ECn is the concentration giving n% inhibition of infection, replication or growth. a–b is a range or a potency band. Rows are shuffled and stem from different studies. An empty or dashed field is not shown.

SMILES	strain or isolate	changes	method	value
CC(=O)N1C[C@@H](O)[C@@H](Cc2ccccc2)N(Cc2ccc(O)cc2)C(=O)N1Cc1ccc(O)cc1	IIIB	-	cytopathic effect	0.17 µM
CN(C(=O)c1ccc(C2=NN3C(C(=O)c4ccc(F)cc4)Oc4ccccc4C3C2)cc1)C1CCCCC1	LAI	-	GFP / reporter gene	<1 µM
O=C1/C(=C\c2cccc([N+](=O)[O-])c2)N(CCc2cccs2)C(=S)N1CCc1cccs1	IIIB	-	MTT	>100 µg/mL
CN1CC(=O)C(=O)C=C1Cn1cnc([N+](=O)[O-])c1Nc1cccc(Cl)c1	IIIB	-	MTT	>5.5 µM
C=C(C)C(=O)OCCOP(=O)(O)O	-	-	cytopathic effect	1.6 µg/mL
C#CCOCn1c(Cc2cc(Cl)cc(Cl)c2)c(CC)c(=O)[nH]c1=O	NNRTI-resistant (RT K103N Y181C) A17	RT-K103N Y181C	cytopathic effect / MTT	5 µM
CCN1C[C@H](C)N2C(=C(O)C3C(=O)N4Cc5ccc(F)cc5OCCCCN5CCN(C(=N4)C32)S5(=O)=O)C1=O	LAII(IIIB)	-	-	0.98 µM
Nc1ccn([C@H]2CC[C@@H](CO)O2)c(=O)n1	IIIB	-	cytopathic effect / trypan blue	0.3 µM
O=C(CCCO)N1C[C@@H](O)[C@@H](Cc2ccccc2)N(Cc2ccc(O)cc2)C(=O)N1Cc1ccc(O)cc1	IIIB	-	cytopathic effect	0.86 µM
CCC[C@@]1(CCc2ccccc2)CC(O)=C([C@H](CC)c2cccc(NS(=O)(=O)c3ccc(C(F)(F)F)cn3)c2)C(=O)O1	T13572	V32I L76V V82I	reporter gene	240 nM
CS(=O)(=O)c1ccc(C(=O)C2Oc3ccccc3C3CC(c4ccc(C(=O)NC5CCCC5)cc4)=NN23)cc1	LAI	-	GFP / reporter gene	<1 µM
CC(CC(F)(OC(F)(F)C(F)(F)C(F)(F)F)C(F)(F)F)(C(=O)OCCOP(=O)(O)O)C(F)(OC(F)(F)C(F)(F)C(F)(F)F)C(F)(F)F	-	-	cytopathic effect	7.7 µg/mL
O=C1/C(=C\c2cccc(Oc3ccc(-c4ccccc4)cc3)c2)N(CCc2cccs2)C(=S)N1CCc1cccs1	IIIB	-	MTT	>81.95 µg/mL
CC1(C)[C@@H](CCO)C[C@H]1n1cnc2c(N)nc(N)nc21	-	-	cytopathic effect	>250 µg/mL
COc1ccc(CNC(=O)c2ccc(C3=NN4C(C(=O)c5ccc(Br)cc5)Oc5ccccc5C4C3)cc2)cc1	LAI	-	GFP / reporter gene	<1 µM
O=C1/C(=C\c2ccc(C3=CC=C3)cc2)N(CCc2cccs2)C(=S)N1CCc1cccs1	IIIB	-	MTT	>58.03 µg/mL
O=C(NCCO)c1c(O)c2ncc(Cc3ccc(F)cc3)cc2n(-c2ccc(F)cc2)c1=O	IIIB	-	ATP / luminescence	0.0124 µM
O=C1/C(=C\c2ccc(Cl)cc2Cl)N(CCc2cccs2)C(=S)N1CCc1cccs1	IIIB	-	MTT	>67.9 µg/mL
Cc1cnc(Nc2ccc(C#N)cc2)nc1C(C)(O)c1ccc(F)cc1	IRLL98	-	MTT	3.549 µM
CCN1C[C@H](C)N2C(=C(O)C3C(=O)N4Cc5ccc(F)cc5OCCCCS(=O)(=O)N(C)C(=N4)C32)C1=O	LAII(IIIB)	-	-	1.14 µM
CN1CC(=O)C(=O)C=C1Cn1cnc([N+](=O)[O-])c1Nc1ccccc1	IIIB	-	MTT	>250 µM
CCN1C[C@H](C)N2C(=C(O)C3C(=O)N4Cc5ccc(F)cc5C(=O)NCCCN=C(N4)C32)C1=O	LAII(IIIB)	-	-	1210 µM
Cc1cn([C@H]2C[C@H](N=[N+]=[N-])[C@@H](CO)O2)c(=O)[nH]c1=O	NL4-3	-	p24 / ELISA	0.00145 µM
C=C(C)[C@@H]1CC[C@]2(C(=O)OC[C@H]3OC(n4cc(C)c(OC(=O)OCC)nc4=O)C[C@@H]3N=[N+]=[N-])CC[C@]3(C)[C@H](CC[C@@H]4[C@@]5(C)CC[C@H](O)C(C)(C)[C@@H]5CC[C@]43C)[C@@H]12	IIIB	-	-	0.017 µM
CC1(C)[C@@H](CCO)C[C@H]1n1nnc2c(=O)[nH]cnc21	-	-	cytopathic effect	>100 µg/mL
Cc1cnc(Nc2ccc(C#N)cc2)nc1C(C)(O)c1ccc(C(C)(C)C)cc1	IRLL98	-	MTT	1.246 µM
CC1(C)[C@@H](CCO)C[C@H]1n1cnc2c(=O)[nH]c(N)nc21	-	-	cytopathic effect	>250 µg/mL
Nc1ncnc2c1ncn2[C@H]1C=C[C@@H](CO)O1	IIIB Laboratory strain	-	cytopathic effect / trypan blue	>5 µM
CCOCn1c(Cc2ccc(Cl)cc2)c(CC)c(=O)[nH]c1=O	IIIB	-	-	44 µM
CCc1c(Cc2cc(Cl)cc(Cl)c2)n(COC2CCc3ccccc32)c(=O)[nH]c1=O	IIIB	-	cytopathic effect / MTT	0.05 µM
O=C1/C(=C\c2ccc(O)cc2)N(CCc2cccs2)C(=S)N1CCc1cccs1	IIIB	-	MTT	>13.25 µg/mL
CN1CC(=O)C(=O)C=C1Cn1cnc([N+](=O)[O-])c1Nc1ccc(Cl)cc1	IIIB	-	MTT	>250 µM
Cc1cc(C#N)cc(C)c1Oc1nc(Nc2ccc(C#N)cc2)nc(N)c1Br	-	K103N	MTT	0.003 µM
CCN1C[C@H](C)N2C(=C(O)C3C(=O)N4Cc5ccc(Cl)cc5C(=O)N(C)CCCCCCN=C(N4)C32)C1=O	LAII(IIIB)	-	-	1190 µM
CC(=O)OC[C@H]1O[C@@H](n2c(-c3ccc(N)cc3)cc(-c3ccco3)c(C#N)c2=O)[C@H](OC(C)=O)[C@@H](OC(C)=O)[C@@H]1OC(C)=O	-	-	cytopathic effect / XTT	11.7 µM
CCOCn1c(Cc2cc(Cl)cc(Cl)c2)c(CC)c(=O)[nH]c1=O	NNRTI-resistant (RT Y181C) N119	RT-Y181C	cytopathic effect / MTT	>10 µM
O=C1/C(=C\c2ccc(Cl)cc2)N(CCc2cccs2)C(=S)N1CCc1cccs1	IIIB	-	MTT	>103 µg/mL
CC(CC(F)(OC(F)(F)C(F)(OC(F)(F)C(F)(F)C(F)(F)F)C(F)(F)F)C(F)(F)F)(C(=O)OCCOP(=O)(O)O)C(F)(OC(F)(F)C(F)(OC(F)(F)C(F)(F)C(F)(F)F)C(F)(F)F)C(F)(F)F	-	-	cytopathic effect	12 µg/mL
CCc1c(Cc2cc(Cl)cc(Cl)c2)n(COC2Cc3ccccc3C2)c(=O)[nH]c1=O	IIIB	-	cytopathic effect / MTT	0.13 µM
Cc1ccc(Nc2c([N+](=O)[O-])ncn2CC2=CC(=O)C(=O)CN2C)cc1	IIIB	-	MTT	>25.4 µM
NC1=CS(=O)(=O)OC12[C@@H](CO)O[C@@H](n1ccc(=O)[nH]c1=O)[C@@H]2O	IIIB	-	cytopathic effect / trypan blue	>100 µg/mL
O=C(NCC1CCCO1)c1ccc(C2=NN3C(C(=O)c4ccc(F)cc4)Oc4ccccc4C3C2)cc1	LAI	-	GFP / reporter gene	1–10 µM
Cc1ccc(-c2cc(-c3ccccc3)c(C#N)c(=O)n2[C@@H]2O[C@H](CO)[C@H](O)[C@H](O)[C@H]2O)cc1	-	-	cytopathic effect / XTT	18.6 µM
Nc1ncnc2c1ncn2[C@H]1CC[C@@H](CO)O1	IIIB Laboratory strain	-	cytopathic effect / trypan blue	6.4 µM
O=C(CO)N1C[C@@H](O)[C@@H](Cc2ccccc2)N(Cc2ccc(O)cc2)C(=O)N1Cc1ccc(O)cc1	IIIB	-	cytopathic effect	3 µM